Laboratory results from patent US10689340B2, “Substituted indoline derivatives as dengue viral replication inhibitors” (priority 2016, dated 2020).

What was measured:
DENV-1 strain TC974#666 = test: Tetravalent RT-qPCR assay, serotype 1; type: cell-based, Dengue virus; conditions: RT-qPCR serotype 1, Protocol A
Protocol: (§1) The antiviral activity of the compounds of the invention was tested against DENV-1 strain TC974#666 (NCPV), DENV-2 strain 16681, DENV-3 strain H87 (NCPV) and DENV-4 strain H241 (NCPV) in a RT-qPCR assay. Therefore, Vero cells were infected with either DENV-1, or -2, or -3, or -4 in the presence or absence of test compounds. At day 3 post-infection, the cells were lysed and cell lysates were used to prepare cDNA of both a viral target (the 3′UTR of DENV; Table 2) and a cellular reference gene (β-actin, Table 2). Subsequently, a duplex real time PCR was performed on a Lightcycler480 instrument. The generated Cp value is inversely proportional to the amount of RNA expression of these targets. Inhibition of DENV replication by a test compound results in a shift of Cp's for the 3′UTR gene. On the other hand, if a test compound is toxic to the cells, a similar effect on β-actin expression will be observed. The comparative ΔΔCp method is used to calculate EC50, which is based on the relative gene expression of the target gene (3′UTR) normalized with the cellular housekeeping gene (β-actin). In addition, CC50 values are determined based on the Cp values acquired for the housekeeping gene β-actin.
(§2) The culture medium consisted of minimal essential medium supplemented with 2% of heat-inactivated fetal calf serum, 0.04% gentamycin (50 mg/mL) and 2 mM of L-glutamine. Vero cells, obtained from ECACC, were suspended in culture medium and 75 μL/well was added in 96-well plates (10000 cells/well), which already contain the antiviral compounds. […] In addition, each plate contains wells which are assigned as virus controls (containing cells and virus in the absence of compound) and cell controls (containing cells in the absence of virus and compound). Once the cells were added in the plates, the plates were incubated in a fully humidified incubator (37° C., 5% CO2) until the next day. Dengue viruses serotype-1, -2, -3 and -4 were diluted in order to obtain a Cp of ˜22-24 in the assay. Therefore, 25 μL of virus suspension was added to all the wells containing test compound and to the wells assigned as virus control. In parallel, 25 μL of culture medium was added to the cell controls. Next, the plates were incubated for 3 days in a fully humidified incubator (37° C., 5% CO2). After 3 days, the supernatant was removed from the wells and the cells were washed twice with ice-cold PBS (˜100 μL). The cell pellets within the 96-well plates were stored at −80° C. for at least 1 day. Next, RNA was extracted using the Cells-to-CT^Tm lysis kit, according to the manufacturer's guideline (Life Technologies). The cell lysates can be stored at −80° C. or immediately used in the reverse transcription step.
(§3) In preparation of the reverse transcription step, mix A (table 3A) was prepared and 7.57 μL/well was dispensed in a 96-well plate. After addition of 5 μL of the cell lysates, a five minute denaturation step at 75° C. was performed (table 3B). Afterwards, 7.43 μL of mix B was added (table 3C) and the reverse transcription step was initiated (table 3D) to generate cDNA.
(§4) Finally, a RT-qPCR mix was prepared, mix C (table 4A), and 22.02 μL/well was dispensed in 96-well LightCycler qPCR plates to which 3 μL of cDNA was added and the qPCR was performed according to the conditions in table 4B on a LightCycler 480.
(§5) Using the LightCycler software and an in-house LIMS system, dose response curves for each compound were calculated and the half maximal effective concentration (EC50) and the half maximal cytotoxic concentration (CC50) were determined (Tables 5-8).

DENV-2 16681 strain = test: DENV-2 antiviral assay (eGFP fluorescence); type: cell-based, Dengue virus; conditions: SI=CC50/EC50, DENV-2 antiviral assay
Protocol: The antiviral activity of all the compounds of the invention was tested against the DENV-2 16681 strain which was labeled with enhanced green fluorescent protein (eGPF). The culture medium consists of minimal essential medium supplemented with 2% of heat-inactivated fetal calf serum, 0.04% gentamycin (50 mg/mL) and 2 mM of L-glutamine. Vero cells, obtained from ECACC, were suspended in culture medium and 25 μL was added to 384-well plates (2500 cells/well), which already contain the antiviral compounds. Typically, these plates contain a 5-fold serial dilution of 9 dilution steps of the test compound at 200 times the final concentration in 100% DMSO (200 nL). […] Finally, each plate contains wells which are assigned as virus controls (containing cells and virus in the absence of compound), cell controls (containing cells in the absence of virus and compound) and medium controls (containing medium in the absence of cells, virus and compounds). To the wells assigned as medium control, 25 μL of culture medium was added instead of Vero cells. Once the cells were added to the plates, the plates were incubated for 30 minutes at room temperature to allow the cells to distribute evenly within the wells. Next, the plates were incubated in a fully humidified incubator (37° C., 5% CO2) until the next day. Then, DENV-2 strain 16681, labeled with eGFP, was added at a multiplicity of infection (MOI) of 0.5. Therefore, 15 μL of virus suspension was added to all the wells containing test compound and to the wells assigned as virus control. In parallel, 15 μL of culture medium was added to the medium and cell controls. Next, the plates were incubated for 3 days in a fully humidified incubator (37° C., 5% CO2). At the day of the read out, the eGFP fluorescence was measured using an automated fluorescence microscope at 488 nm (blue laser). Using an in-house LIMS system, inhibition dose response curves for each compound were calculated and the half maximal effective concentration (EC50) was determined. Therefore, the percent inhibition (I) for every test concentration is calculated using the following formula: I=100*(ST-SCC)/(SVC-SCC); ST, SCC and SVC are the amount of eGFP signal in the test compound, cell control and virus control wells, respectively. The EC50, represents the concentration of a compound at which the virus replication is inhibited with 50%, as measured by a 50% reduction of the eGFP fluorescent intensity compared to the virus control. The EC50 is calculated using linear interpolation (Table 1).

DENV-4 strain H241 = test: Tetravalent RT-qPCR assay, serotype 4; type: cell-based, Dengue virus; conditions: RT-qPCR serotype 4, Protocol A
Protocol: as §1, §2, §3, §4, §5

DENV-3 strain H87 = test: Tetravalent RT-qPCR assay, serotype 3; type: cell-based, Dengue virus; conditions: RT-qPCR serotype 3, Protocol A
Protocol: as §1, §2, §3, §4, §5

DENV-2 strain 16681 = test: Tetravalent RT-qPCR assay, serotype 2; type: cell-based, Dengue virus; conditions: RT-qPCR serotype 2, Protocol A
Protocol: as §1, §2, §3, §4, §5

DENV-2 = conditions: analogous DENV-2 antiviral assay, reported activity; cited from earlier work

Structure (SMILES) | SI (DENV-1 strain TC974#666) | SI (DENV-2 16681 strain) | SI (DENV-4 strain H241) | SI (DENV-3 strain H87) | SI (DENV-2 strain 16681) | SI (DENV-2)
COc1cc(NC(C(=O)N2CCc3ccc(C(F)(F)F)cc32)c2ccc(F)cc2)cc(OCCCC(=O)O)c1 (single isomer, unassigned) [Compound 1B] | 34200 | 26500 | 173 | >909 | 38000 | –
COc1cc(NC(C(=O)N2CCc3ccc(OC(F)(F)F)cc32)c2ccc(F)cc2)cc(OCCCC(=O)O)c1 (single isomer, unassigned) [Compound 2B] | >19400 | 214720 | 587 | >1200 | 76100 | –
COc1cc(NC(C(=O)N2CCc3ccc(C(F)(F)F)cc32)c2ccc(Cl)cc2)cc(OCCCC(=O)O)c1 (single isomer, unassigned) [Compound 3B] | >30300 | 111100 | 85 | >5170 | 81700 | –
COc1cc(NC(C(=O)N2CCc3ccc(OC(F)(F)F)cc32)c2ccc(Cl)cc2)cc(OCCCC(=O)O)c1 (single isomer, unassigned) [Compound 4B] | >85800 | 92400 | 682 | >5610 | >65500 | –
COc1cc(NC(C(=O)N2CCc3cc(OC)c(C(F)(F)F)cc32)c2ccc(Cl)cc2)cc(OCCCC(=O)O)c1 (single isomer, unassigned) [Compound 5B] | >6700 | 87500 | 530 | >1050 | >16000 | –
COc1cc(NC(C(=O)N2CCc3ccc(C(F)(F)F)cc32)c2ccc(Cl)cc2OC)cc(OCCCC(=O)O)c1 (single isomer, unassigned) [Compound 6B] | >8420 | >209126 | >232 | >2170 | >23800 | –
COc1cc(NC(C(=O)N2CCc3cc(OC)c(C(F)(F)F)cc32)c2ccc(Cl)cc2OC)cc(OCCCC(=O)O)c1 (single isomer, unassigned) [Compound 7B] | >6020 | 101083 | 531 | >1080 | >34500 | –
COc1cc(NC(C(=O)N2CCc3ccc(OC(F)(F)F)cc32)c2ccc(Cl)cc2OC)cc(OCCCC(=O)O)c1 (single isomer, unassigned) [Compound 8B] | >30700 | >62700 | 334 | >2740 | >43700 | –
COc1cc(NC(C(=O)N2CCc3ccc(C(F)(F)F)cc32)c2ccc(Cl)cc2F)cc(OCCCC(=O)O)c1 (single isomer, unassigned) [Compound 9B] | >24000 | 28400 | 570 | >1360 | >18200 | –
COc1cc(NC(C(=O)N2CCc3ccc(OC(F)(F)F)cc32)c2ccc(Cl)cc2F)cc(OCCCC(=O)O)c1 (single isomer, unassigned) [Compound 10A] | >33300 | 79200 | 2640 | >1290 | >24400 | –
COc1cc(NC(C(=O)N2CCc3cc(OC)c(C(F)(F)F)cc32)c2ccc(Cl)cc2F)cc(OCCCC(=O)O)c1 (single isomer, unassigned) [Compound 11B] | >6970 | 124345 | 697 | >604 | >18300 | –
COc1cc(NC(C(=O)N2CCc3cc(OC)c(OC(F)(F)F)cc32)c2ccc(Cl)cc2)cc(OCCCC(=O)O)c1 (single isomer, unassigned) [Compound 12B] | >6820 | 34900 | 348 | >1240 | >12900 | –
COc1cccc(NC(C(=O)N2CCc3ccccc32)c2ccccc2)c1 (centres unmarked) [(56) of WO-2013/045516] | – | – | – | – | – | >312
CNC(=O)c1cccc(NC(C(=O)c2c[nH]c3ccccc23)c2ccccc2)c1 (centres unmarked) [(170) of WO-2013/045516] | – | – | – | – | – | 58
